Library screen at single concentrations

Mtb cholesterol medium: 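Whole-cell growth test on Mycobacterium tuberculosis, read after 4 days in a medium based on cholesterol and the lipid DPPC; the read-out is not stated. Concentration: 500 µM. Direction is inferred from retests: higher values go with more growth inhibition. Of about 18,000 compounds tested this way, about 900 (5%) reached 50% or more in at least one test.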
Mtb glucose medium: 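Whole-cell growth test on Mycobacterium tuberculosis, read after 3 days in glucose-containing 7H9 medium; the read-out is not stated. Compounds at 500 µM. The record gives no direction; compounds that gave an IC50 in retests scored well above the rest, so higher reads as more growth inhibition. Of about 18,000 compounds tested this way, about 1,400 (7.9%) reached 50% or more in at least one test.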

The filed quantity is “Percent Effect” (%).
How 0% and 100% were set is not recorded. Most values in the screen are low, and negative values occur.
This is part of a subset picked to be rich in strong results.

{"structure": "CCC1(C(=O)Nc2ccc3[nH]ncc3c2)CCNC1", "stereo": "stereo not given", "Mtb cholesterol medium": 6.08}
{"structure": "OC1CCCN(Cc2nc3ccccc3o2)C1", "stereo": "stereo not given", "Mtb cholesterol medium": -16.02}
{"structure": "COc1ccc(CCN)c(Cl)c1OC", "Mtb cholesterol medium": 16.2, "Mtb glucose medium": 54.79}
{"structure": "CN(C)C(=O)CCCNC1CCC2(CCNCC2)CC1", "Mtb glucose medium": 4.394}
{"structure": "NS(=O)(=O)N1CCCC1C(=O)NC1CC1", "stereo": "stereo not given", "Mtb glucose medium": -6.557}
{"structure": "COCC1CCN(Cc2ccc3c(c2)OCO3)C1", "stereo": "stereo not given", "Mtb glucose medium": 6.628}
{"structure": "CCc1nc(CCN)cs1", "Mtb cholesterol medium": 79.77, "Mtb glucose medium": 82.58}
{"structure": "CCN(CC)C(=O)c1cc(C)oc1C", "Mtb glucose medium": -6.846}
{"structure": "O=C1CCN(C(=O)CCCSc2ccccc2)CCN1", "Mtb cholesterol medium": 12.94}
{"structure": "CC(=O)NC(Cc1ccc(O)cc1)C(C)=O", "stereo": "stereo not given", "Mtb glucose medium": 8.023}
{"structure": "COCCNC(=O)c1ccc(CN2CCCCC2)cc1", "Mtb glucose medium": 9.969}
{"structure": "c1ccc(CSc2nnc(C3CC3)[nH]2)nc1", "Mtb glucose medium": 26.7}
{"structure": "CCOC(=O)N1CCN(S(=O)(=O)c2cccs2)CC1", "Mtb cholesterol medium": -9.057}
{"structure": "CCNC(=O)c1cn2ccc(C)cc2n1", "Mtb glucose medium": 4.273}
{"structure": "NC(=O)CN(CCc1ccncc1)C1CCCC1", "Mtb cholesterol medium": 10.31}
{"structure": "O=C(Cc1ccc(O)c(Cl)c1)NCC1CCOC1", "stereo": "stereo not given", "Mtb glucose medium": 12.11}
{"structure": "N#Cc1ccc(C(=O)NCC2CCCO2)cc1", "stereo": "stereo not given", "Mtb cholesterol medium": 26.34, "Mtb glucose medium": 39.03}
{"structure": "Cc1cc(NC(=O)CCN(C)C(C)CO)no1", "stereo": "stereo not given", "Mtb cholesterol medium": 8.564}
{"structure": "Cc1nnc(SCC(N)=O)[nH]1", "Mtb cholesterol medium": -7.05, "Mtb glucose medium": 1.792}
{"structure": "CC(C)c1nc(NCc2cccnc2)n(C)n1", "Mtb cholesterol medium": -7.588, "Mtb glucose medium": -11.56}
{"structure": "CC(C)Cc1cc(C(=O)NC[C@@H]2C[C@H](F)CN2)on1", "Mtb cholesterol medium": 16.64}
{"structure": "COc1ccccc1CC(=O)N(C)C1CCS(=O)(=O)C1", "stereo": "stereo not given", "Mtb cholesterol medium": 25.16}
{"structure": "CSCCOC(=O)c1ccc2nncn2c1", "Mtb cholesterol medium": 1.886, "Mtb glucose medium": 18.22}

2 of the entries, repeated:

- O=C(Cc1ccc(O)c(Cl)c1)NCC1CCOC1 (stereo not given) : Mtb glucose medium: 12.11%
- OC1CCCN(Cc2nc3ccccc3o2)C1 (stereo not given) : Mtb cholesterol medium: -16.02%

The values are deposited in ChEMBL (CHEMBL3988442, “University of Dundee, Small-Polar-MMV Screening Library” (2021)).